Values from PubChem BioAssay AID1224833 (University of Georgia, 2016)
Here is an unselected part of about 12,000 deposited reagents. Of all reagents, about 5,600 (46%) were called active. 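Active calls cover z-scores past 1 in both directions, so they include lowered as well as raised rotavirus replication.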 Reagent sequences are not shown.

Purpose: 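Host factors restraining rotavirus as candidate antiviral genes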 (primary screen)
System: monkey MA104 kidney cells
Knock-down reagent: siRNA pool against human genes, 50 nM
Time to read-out: 48 h knock-down before infection; read 24 h after infection
Challenge: infection with rotavirus strain RV3 two days after transfection; infectious dose for this stage not given
Read-out: 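Rotavirus antigen per well by fluorescent immunoassay, normalised to non-targeting control wells on each plate and given as a standard z-score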
Direction: z-score vs non-targeting control: higher = more rotavirus replication than with non-targeting control
Active means: In these data the active calls have z-score vs non-targeting control at about -1 or lower, or at about 1 or higher
Meaning of the calls: active = z-score beyond 1 either way; inactive = z-score within 1 of zero

The opening 6 records, ahead of the listing:
no.	gene	z-score vs non-targeting control	activity call
1	RBM10	2.34	active
2	MYOM1	-2.05	active
3	TLL1	0.931	inactive
4	TRIP6	-0.926	inactive
5	AEBP2	-0.738	inactive
6	LARGE1	0.675	inactive

Results, from the start:
no.	gene	z-score vs non-targeting control	activity call
1	RBM10	2.34	active
2	MYOM1	-2.05	active
3	TLL1	0.931	inactive
4	TRIP6	-0.926	inactive
5	AEBP2	-0.738	inactive
6	LARGE1	0.675	inactive
7	PIAS3	-0.784	inactive
8	PMEPA1	-0.919	inactive
9	OR6S1	-0.567	inactive
10	LPAR3	-1.51	active
11	ALDH1A1	-1.99	active
12	BOC	-0.0331	inactive
13	MYO1D	-1.91	active
14	OLFM3	0.0954	inactive
15	SPEM1	-1.3	active
16	TLR5	0.647	inactive
17	ABI1	-1.55	active
18	SNX1	-1.16	active
19	ARFGEF3	-0.144	inactive
20	ITM2A	0.768	inactive
21	RARS2	-0.559	inactive
22	AMBN	2.14	active
23	RAB14	-1.67	active
24	CUEDC1	0.843	inactive
25	TTLL3	-0.0567	inactive
26	S100A7A	-0.255	inactive
27	FETUB	1.9	active
28	B3GALT4	-1.92	active
29	NRN1L	-0.625	inactive
30	OSBPL3	0.196	inactive
31	FAM133A	-0.669	inactive
32	STARD3NL	-0.66	inactive
33	CASS4	-1.02	active
34	LGI4	-0.198	inactive
35	OVCH1	0.902	inactive
36	PPIB	-1.77	active
37	RIOX2	-0.58	inactive
38	HOXC13	-1.18	active
39	NUCB2	-0.135	inactive
40	ODF1	-0.831	inactive
41	GADD45GIP1	0.528	inactive
42	SLC35G3	-0.635	inactive
43	H2AX	0.533	inactive
44	MAGEA10	0.576	inactive
45	SLC25A36	-1.18	active
46	MFAP3L	0.0434	inactive
47	CYP3A5	0.225	inactive
48	RFX3	-0.847	inactive
49	COPS7A	-0.0789	inactive
50	FTHL17	-1.69	active
51	ANKRD40	2.26	active
52	DPM3	-0.399	inactive
53	ZBTB21	0.36	inactive
54	RPL8	-1.17	active
55	ACTR1B	-0.113	inactive
56	CD151	1.04	active
57	KIF2B	-1.25	active
58	PAX5	-1.52	active
59	BANK1	0.209	inactive
60	RBM28	1.98	active
61	GLMN	-0.191	inactive
62	ZSCAN4	-0.353	inactive
63	MCM2	-1.81	active
64	NT5DC1	1.23	active
65	KMO	-1.02	active
66	LSMEM2	1.59	active
67	ZKSCAN4	-0.762	inactive
68	UCN	-0.969	inactive
69	BDP1	1.01	active
70	ADCY9	0.981	inactive
71	TTC6	0.173	inactive
72	TCL1B	0.205	inactive
73	OR6C3	0.266	inactive
74	SMPDL3A	-1.39	active
75	STEAP1	1.32	active
